Values from PubChem BioAssay AID1259414 (Drosophila RNAi Screening Center, 2018)
The screen tested about 24,000 reagents; shown is a random part of those with a known target gene and a result. In the full data, about 1,210 (5%) are marked active. 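Inactive calls also include excluded dsRNAs with several or no targets, genes unexpressed in JW18, and well A1, regardless of score.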 Reagents against one gene are numbered here. A plus sign joins genes that one reagent is predicted to hit. No sequences are given here.

Screen: 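Host factors increasing or decreasing Wolbachia levels in cultured fly cells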 (primary screen)
System: Drosophila JW18 cells infected with Wolbachia
Knock-down reagent: long dsRNA against Drosophila genes, 0.25 µg dsRNA per well of a 384-well plate
Timing: 5 days
Challenge: cells persistently infected with Wolbachia before knock-down; no added drug
Measured: 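Imaged fluorescence in situ signal for Wolbachia 23S rRNA per DAPI-counted host cell, given as a robust z-score within each plate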
Reading the numbers: Wolbachia per cell robust z: higher = more Wolbachia per host cell than the plate typical
Hit rule: 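Hit when robust z is 1.5 or more, or -1.5 or less, in at least two of three replicates; excludes dsRNAs with several or no targets, genes not expressed in JW18 and well A1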

gene	reagent	Wolbachia per cell robust z, rep 1	Wolbachia per cell robust z, rep 2	Wolbachia per cell robust z, rep 3	Outcome
Muc30E	1	0.833	0.675	0.611	inactive
Muc30E	2	-1.01	-0.00966	0.491	inactive
Jon99Ciii	1	-0.275	1.19	1.27	inactive
Oatp26F	1	0.215	0.212	0.454	inactive
Oatp26F	2	-1.75	-1.07	0.445	inactive
Oatp26F	3	-0.805	0.227	-2.41	inactive
Oatp26F	4	0.744	1.22	0.644	inactive
Gmppa	1	0.806	0.791	1.42	inactive
Gmppa	2	-0.343	1.24	-1.19	inactive
CG17698	1	-3.86	-4.43	-5.43	inactive
yps	1	0.0403	-0.62	-1.12	inactive
Dnaaf3	1	0.368	-0.159	-0.468	inactive
Cpr65Ay	1	-1.18	1.04	-0.229	inactive
CG14330	1	1.28	-1.95	0.94	inactive
mip130	1	-0.377	1.09	0.586	inactive
mip130	2	0.792	-0.296	0.116	inactive
CG14109	1	-0.279	-1.09	1.97	inactive
CG14109	2	1.47	-3.28	-1	inactive
CG17140 + CG17139	1	-2.12	0.442	-1.27	inactive
CG17140 + CG17139	2	0.147	-1.84	-0.158	inactive
CG12483	1	-0.184	0.801	-0.109	inactive
mRpL46	1	-4.27	0.618	0.557	inactive
Gle1	1	-1.35	0.0462	1.16	inactive
Gle1	2	-3.58	-0.221	-5.13	active
CG30392	1	0.269	0.258	-1.18	inactive
CG7881	1	0.439	-1.2	-0.723	inactive
SmE	1	0.721	-0.598	2.27	inactive
CG14238	1	0.872	-1.75	0.915	inactive
CG14238	2	-2.29	-0.48	-0.653	inactive

A portion of the results above, for reference:
gene	reagent	Wolbachia per cell robust z, rep 1	Wolbachia per cell robust z, rep 2	Wolbachia per cell robust z, rep 3	Outcome
yps	1	0.0403	-0.62	-1.12	inactive
Dnaaf3	1	0.368	-0.159	-0.468	inactive
